Data as given in PubChem BioAssay AID1259414 (Drosophila RNAi Screening Center, 2018).
The deposit covers about 24,000 reagents; shown is a random part of those with a known target gene and a result. Of all reagents, about 1,210 (5%) were called active. 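Inactive calls also include excluded dsRNAs with several or no targets, genes unexpressed in JW18, and well A1, regardless of score.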 Entries without a mark were called inactive. Reagents against one gene are numbered here. Names joined by + are all predicted targets of the reagent.

Aim: 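Host factors increasing or decreasing Wolbachia levels in cultured fly cells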 (primary screen)
System: Drosophila JW18 cells infected with Wolbachia
Reagent: long dsRNA against Drosophila genes, 0.25 µg dsRNA per well of a 384-well plate
Duration: 5 days
Challenge: cells persistently infected with Wolbachia before knock-down; no added drug
Measurement: 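Automated imaging of bacterial rRNA staining divided by host cell count, reported as plate-normalised robust z-score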
Reading the numbers: Wolbachia per cell robust z: higher = more Wolbachia per host cell than the plate typical
Hit rule: 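Active if absolute robust z reaches 1.5 in two or more of three replicates, leaving out multi- or no-target dsRNAs, genes unexpressed in JW18 and A1 wells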

gene	reagent	Wolbachia per cell robust z, rep 1	Wolbachia per cell robust z, rep 2	Wolbachia per cell robust z, rep 3
CR32009 + PlexB + CR32010 + 1 more	1	-0.364	0.748	-0.311
chic	1	1.5	0.844	-0.185
chic	2	-1.76 (active)	0.77	-1.9
CG42465	1	1.02	-0.51	0.033
fd3F + CR42499	1	0.667	0.564	-1.17
fd3F + CR42499	2	0.089	-0.997	-0.871
fd3F + CR42499	3	0.757	-0.472	0.83
Ppr-Y	1	1.69	-0.736	-1.49
Rbp1	1	-0.795	-6.43	-0.0493
RhoGEF4	1	0.469	-0.215	-1.14
RhoGEF4	2	-0.0553	0.347	0.0116
CG34292	1	-0.692	-0.0739	-0.511
ND-15	1	1.47	0.731	-0.268
CG1738	1	1.2	-0.358	0.45
CG1738	2	-2.57	0.807	-0.108
CG42682	1	-2.51	0.391	-0.224
CG8435	1	1.16	-0.406	1.73
CG8435	2	0.461	0.176	-3.24
mus81	1	1	0.388	0.434
mus81	2	-1.25	-0.244	-2.26
Sirt1	1	0.34	-0.829	1.03
CG4660	1	-0.143	-0.684	-3.62
LUBEL	1	-8.05	0.0588	0.17
LUBEL	2	0.633	0.382	0.762
Spt3	1	-0.323	0.0239	0.133
Spt3	2	1.36	0.382	2.09
CG8726	1	0.0587	0.533	1.03
CG8726	2	0.872	-0.00229	0.459
Cpr65Ax1 + Cpr65Ax2	1	-0.444	-0.714	0.601
tko	1	0.371	-0.303	0.0645
tko	2	0.384	0.727	0.843
CG8321	1	-8.19	-0.992	1.1
HLH54F	1	-0.788	-0.451	-3.11
Urod	1	-2.52 (active)	0.126	-2.89
Urod	2	0.132	-0.138	-4.33
Wsck	1	0.489	-0.605	-0.124
Wsck	2	-0.401	1.1	1.12
CG6414	1	0.561	-1.35	0.62
CG5335	1	-0.734	-0.711	-1.13
CG5335	2	0.196	0.687	-0.753
pn	1	-0.0859	-0.491	-7.61
pn	2	1.28	0.497	0.852
pn	3	-2.88	0.169	1.64
CG13705	1	-0.982	-0.724	-0.908
CG13705	2	-2.74	0.681	0.853
CG13705	3	0.0844	-0.674	0.471
slx1	1	0.95	0.674	0.864
Uhg8	1	-1.99	1.09	0.977
Zif	1	0.715	-0.423	1.17
PIP5K59B	1	-6.7	-0.707	-5.53
PIP5K59B	2	-4.02	0.751	-0.386
dpr16	1	-0.534	0.728	1.11
dpr16	2	-0.221	0.237	0.642
CG34229	1	1.14	0.264	1.32
CG34229	2	-0.677	0.6	-1.12
CG10395	1	0.441	0.324	0.0285
CG10395	2	0.269	0.323	0.798
CG12402	1	-0.782	0.509	-0.543
CG12402	2	0.975	0.668	1.15
CG5800	1	-0.976	-0.312	0.691
CG5800	2	-0.932	-0.556	-1.79
e	1	-7.44	-0.434	0.389
e	2	0.834	0.996	-0.0385
CG30151	1	-0.109	0.733	0.0617
CG30151	2	0.397	-0.325	0.977
TAF1B	1	-1.03	-1.48	-0.716
capu	1	0.0692	-1.33	-0.419
capu	2	0.693	0.691	1.96
capu	3	0.315	-1.26	-0.0884

Reprinted from the entries so far, 9 entries:
gene	reagent	Wolbachia per cell robust z, rep 1	Wolbachia per cell robust z, rep 2	Wolbachia per cell robust z, rep 3
CG42682	1	-2.51	0.391	-0.224
CG8435	1	1.16	-0.406	1.73
CG8435	2	0.461	0.176	-3.24
mus81	1	1	0.388	0.434
mus81	2	-1.25	-0.244	-2.26
Sirt1	1	0.34	-0.829	1.03
CG4660	1	-0.143	-0.684	-3.62
LUBEL	1	-8.05	0.0588	0.17
LUBEL	2	0.633	0.382	0.762
